{"source": "PubChem BioAssay AID504761 (Drosophila RNAi Screening Center, 2011)", "test": "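Fly genes whose silencing reduces dengue virus type 2 infection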 (primary screen)", "system": "D.Mel-2 cells from Drosophila", "knock-down reagent": "long dsRNA against Drosophila genes", "challenge": "infection with dengue virus type 2; dose and infection time not stated", "measurement": "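Per well on two replicate plates, imaging gave the percent of cells positive for viral envelope protein, ranked by infection, and a nuclear count of cells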", "scale": "infection score: higher = more virus-infected cells; cell count: higher = more cells in the well", "hit rule": "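Low infection ranks in the two replicates (chance level up to 0.065) followed by a retest with a 1.5-fold or larger significant decrease, p below 0.05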", "meaning of the calls": "active = confirmed: knock-down lowers infection; inactive = not picked or not confirmed", "note": "The deposit covers about 22,000 reagents; shown is a random part of those that have a named target and a result. In the full data, 116 (0.52%) are marked active. 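Calls depend on retest data that are not deposited; infection was ranked per plate without normalising between plates; the unit of the infection score is not given.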 Raw values are not corrected between plates. Further read-outs or replicates are left out here. Not given: the amount of reagent, the time to read-out."}
{"gene knocked down":"CG6707","dsRNA":"DRSC10697","infection score, replicate 1":5.01,"cell count, replicate 1":6223,"activity call":"inactive"}
{"gene knocked down":"m-cup","dsRNA":"DRSC14430","infection score, replicate 1":9.31,"cell count, replicate 1":6357,"activity call":"inactive"}
{"gene knocked down":"CG31709","dsRNA":"DRSC01081","infection score, replicate 1":3.8,"cell count, replicate 1":6447,"activity call":"inactive"}
{"gene knocked down":"CG31709","dsRNA":"DRSC27731","infection score, replicate 1":4.33,"cell count, replicate 1":6612,"activity call":"inactive"}

The list goes on (2 carried over from the part before).
{"gene knocked down":"CG31709","dsRNA":"DRSC01081","infection score, replicate 1":3.8,"cell count, replicate 1":6447,"activity call":"inactive"}
{"gene knocked down":"CG31709","dsRNA":"DRSC27731","infection score, replicate 1":4.33,"cell count, replicate 1":6612,"activity call":"inactive"}
{"gene knocked down":"Dscam4","dsRNA":"DRSC08913","infection score, replicate 1":2.12,"cell count, replicate 1":5697,"activity call":"inactive"}
{"gene knocked down":"Dscam4","dsRNA":"DRSC10031","infection score, replicate 1":1.11,"cell count, replicate 1":6116,"activity call":"inactive"}
{"gene knocked down":"Dscam4","dsRNA":"DRSC10329","infection score, replicate 1":0.94,"cell count, replicate 1":5763,"activity call":"inactive"}
{"gene knocked down":"Dscam4","dsRNA":"DRSC10765","infection score, replicate 1":1.15,"cell count, replicate 1":5715,"activity call":"inactive"}
{"gene knocked down":"Dscam4","dsRNA":"DRSC27460","infection score, replicate 1":20.3,"cell count, replicate 1":6340,"activity call":"inactive"}
{"gene knocked down":"CG13036 (retired record)","dsRNA":"DRSC09916","infection score, replicate 1":1,"cell count, replicate 1":6404,"activity call":"inactive"}
{"gene knocked down":"CG31816","dsRNA":"DRSC01547","infection score, replicate 1":9.02,"cell count, replicate 1":6145,"activity call":"inactive"}
{"gene knocked down":"CG7320","dsRNA":"DRSC10810","infection score, replicate 1":3.56,"cell count, replicate 1":6608,"activity call":"inactive"}
{"gene knocked down":"CG7320","dsRNA":"DRSC26050","infection score, replicate 1":6.18,"cell count, replicate 1":5518,"activity call":"inactive"}
